Source: patent US20240309070

VV B5 monomer protein (Wyeth Vaccinia strain B5 with C-terminal AVI tag and HIS6 tag)
CAR+ % Parent (B5-CAR-050): 95.6% | CAR+ % Parent (B5-CAR-051): 91.9%
